Results of unrelated studies side by side (data: NIAID ChemDB).

All rows: whole-cell or culture tests; agent: HIV-1; cells: MT-4; measure: EC50

An empty or dashed field is not shown.

{"SMILES": "CC(C)n1cc(C(=O)O)c(=O)c2cc(Br)c(Oc3ccnc(Nc4ccc(C#N)cc4)n3)cc21", "strain": "IIIB", "method": "MTT", "value": "0.088 µM"}
{"SMILES": "CCCc1nnc(C[C@H](C[C@H](O)CN2CCN(C(C)(C)c3ncc(-c4ccc(F)cc4)o3)C[C@H]2C(=O)NCC(F)(F)F)C(=O)N[C@H]2c3ccccc3OC[C@H]2O)o1", "strain": "NL4-3 WT", "method": "p24", "value": "<0.016 µM"}
{"SMILES": "Cc1cc(C#Cc2cccc(N)c2)cc(C)c1Oc1ccnc(NC2CCN(c3cccc(C(N)=O)c3)CC2)n1", "strain": "IIIB", "method": "MTT", "value": "0.024 µM"}
{"SMILES": "[N-]=[N+]=N[C@H]1C[C@H](n2cnc3c(NC4CCC4)nc(N)nc32)O[C@@H]1CO", "strain": "IIIB", "method": "cytopathic effect", "value": "14 µM"}
{"SMILES": "O=C(OCc1ccccc1)N(CCCCCN1CCCN(CCCCCN(Cc2ccccc2)C(=O)OCc2ccccc2)CCN(CCCCCN(Cc2ccccc2)C(=O)OCc2ccccc2)CCCN(CCCCCN(Cc2ccccc2)C(=O)OCc2ccccc2)CC1)Cc1ccccc1", "strain": "LAV", "method": "syncytia", "value": "10 µM"}
{"SMILES": "N#Cc1ccc(Nc2nc(Oc3ccc(-c4ccc(C#N)cc4)c(Cl)c3)c3sccc3n2)cc1", "strain": "IIIB", "method": "MTT", "value": "0.2296 µM"}
{"SMILES": "Nc1ccn([C@H]2CC[C@@H](CO)O2)c(=O)n1", "strain": "LZ-07.96 (HXB2 RT T69N L74I Q151M M184V)", "changes": "RT-T69N L74I Q151M M184V", "method": "cytopathic effect", "value": ">20 µM"}
{"SMILES": "COC(=O)N[C@H](C(=O)N[C@@H](Cc1ccccc1)[C@@H](O)CN(Cc1ccc(-c2ccccn2)cc1)NC(=O)[C@@H](NC(=O)OC)C(C)(C)C)C(C)(C)C", "strain": "NL4-3", "changes": "L10F V32I M46I I54M A71V I84V", "method": "p24 / luminescence", "value": "0.371 µM"}
{"SMILES": "Cc1cc(-c2ccc(C#N)cc2)cc(C)c1Oc1nc(Nc2ccc(C#N)cc2)nc2ccsc12", "strain": "RES056", "method": "MTT", "value": "0.1522 µM"}
{"SMILES": "C1CNCCNCCCN(CCCN2CCCNCCNCCCNCC2)CCNC1", "strain": "LAV", "method": "syncytia", "value": "1 µM"}
{"SMILES": "CC(C)(c1ncc(-c2ccc(Cl)cc2)o1)N1CCN(C[C@@H](O)C[C@@H](Cc2nnc(-c3ccccc3)o2)C(=O)N[C@H]2c3ccccc3OC[C@H]2O)[C@H](C(=O)NCC(F)(F)F)C1", "strain": "NL4-3 WT", "method": "p24", "value": "<0.008 µM"}
{"SMILES": "COc1ccc(S(=O)(=O)N(CC(C)C)C[C@@H](O)[C@H](Cc2ccccc2)NC(=O)O[C@H]2CO[C@@H]3O[C@H]4OCC[C@H]4[C@@H]32)cc1", "strain": "NL4-3", "changes": "M46I V28F I84V", "method": "p24 / luminescence", "value": "0.5043 µM"}
{"SMILES": "CCCNc1nc(N)nc2c1ncn2[C@H]1C[C@H](N=[N+]=[N-])[C@@H](CO)O1", "strain": "IIIB", "method": "cytopathic effect", "value": "23 µM"}
{"SMILES": "CCOCn1c(Cc2ccccc2)c(C(C)C)c(=O)[nH]c1=O", "strain": "HXB2", "method": "cytopathic effect / MTT", "value": "0.01 µM"}
{"SMILES": "CCCn1cc(C(=O)O)c(=O)c2cc(Br)c(Oc3ccnc(Nc4ccc(C#N)cc4)n3)cc21", "strain": "IIIB", "changes": "K103N Y181C NNRTI-resistant", "method": "MTT", "value": "3.15 µM"}
{"SMILES": "c1ccc(CNCCCCCN2CCCN(CCCCCNCc3ccccc3)CCN(CCCCCNCc3ccccc3)CCCN(CCCCCNCc3ccccc3)CC2)cc1", "strain": "LAV", "method": "syncytia", "value": "1 µM"}
{"SMILES": "Cc1cn([C@H]2C=C[C@@H](CO)O2)c(=O)[nH]c1=O", "strain": "BI-03.97 (HXB2(RT-A62V S68G T69D V75I F77L F116Y Q151M))", "changes": "RT-A62V S68G T69D V75I F77L F116Y Q151M", "method": "cytopathic effect", "value": ">10 µM"}
{"SMILES": "Nc1nc2c(ncn2COCCO)c(=O)[nH]1", "method": "cytopathic effect / XTT", "value": ">100 µM"}
{"SMILES": "Cc1cc(C#Cc2cccc(N)c2)cc(C)c1Oc1ccnc(NC2CCN(Cc3ccc(C(N)=O)cc3)CC2)n1", "strain": "IIIB", "changes": "Y188L", "method": "MTT", "value": ">0.198 µM"}
{"SMILES": "CC(C)(c1ncc(-c2ccc(F)cc2)o1)N1CCN(C[C@@H](O)C[C@@H](Cc2nnco2)C(=O)N[C@H]2c3ccccc3OC[C@H]2O)[C@H](C(=O)NCC(F)(F)F)C1", "strain": "NL4-3 WT", "method": "p24", "value": "<0.125 µM"}
{"SMILES": "CC(C)Nc1cccnc1N1CCN(C(=O)c2cc3cc(NS(C)(=O)=O)ccc3[nH]2)CC1", "strain": "LZ-05.95", "method": "cytopathic effect", "value": "0.04 µM"}
{"SMILES": "O=C(O)c1cc(CN2CCCNCCNCCCNCC2)ccc1CN1CCCNCCNCCCNCC1", "strain": "RF", "method": "cytopathic effect / MTT", "value": ">10 µg/mL"}
{"SMILES": "CNC(=O)CSP(=O)(NCC(=O)OC)OC[C@@H]1CC[C@H](n2ccc(N)nc2=O)O1", "method": "cytopathic effect / XTT", "value": "1 µM"}
{"SMILES": "Cc1nnc(C[C@H](C[C@H](O)CN2CCN(C(C)(C)c3ncc(-c4ccc(F)cc4)o3)C[C@H]2C(=O)NCC(F)(F)F)C(=O)N[C@H]2c3ccccc3OC[C@H]2O)o1", "strain": "K-60 Clinical isolate", "changes": "PR-L10I M46I I54V Q58E L63P I64V V77I V82F I84V L90M I93L", "method": "p24", "value": "<0.125 µM"}
{"SMILES": "NCCCCCN1CCCN(CCCCCN)CCCN(CCCCCN)CCN(CCCCCN)CCC1", "strain": "LAV", "method": "syncytia", "value": "1 µM"}
{"SMILES": "Cc1cc(C#Cc2ccccc2N)cc(C)c1Oc1ccnc(Nc2ccc(C#N)cc2)n1", "strain": "IIIB", "changes": "E138K", "method": "MTT", "value": "0.8 µM"}
{"SMILES": "Cc1ccnc2c1NC(=O)c1cccnc1N2C1CC1", "strain": "IIIB", "changes": "Y188L", "method": "MTT", "value": ">15.9 µM"}
{"SMILES": "CC(C)(C)n1cc(C(=O)O)c(=O)c2cc(I)c(Oc3ccnc(Nc4ccc(C#N)cc4)n3)cc21", "strain": "IIIB", "changes": "K103N Y181C NNRTI-resistant", "method": "MTT", "value": "4.73 µM"}
{"SMILES": "N#Cc1ccc(Nc2nc(Oc3ccc(-c4ccc(C#N)cc4)cc3F)c3sccc3n2)cc1", "strain": "IIIB", "method": "MTT", "value": "0.0475 µM"}
{"SMILES": "CSc1nc(N)nc2c1ncn2[C@H]1C[C@H](N=[N+]=[N-])[C@@H](CO)O1", "strain": "IIIB", "method": "cytopathic effect", "value": ">200 µM"}
{"SMILES": "CC(C)=CCOCn1c(Cc2cc(C)cc(C)c2)c(C(C)C)c(=O)[nH]c1=O", "strain": "IIIB", "method": "cytopathic effect / MTT", "value": "0.00015 µM"}
{"SMILES": "[N-]=[N+]=N[C@H]1C[C@H](n2cnc3c(Oc4ccccc4)nc(N)nc32)O[C@@H]1CO", "strain": "IIIB", "method": "cytopathic effect", "value": "43 µM"}
{"SMILES": "C1CNCCNCCCN2CCCNCCNCCCN(C1)CC2", "strain": "NL4-3", "method": "cytopathic effect / MTT", "value": "7.18 µg/mL"}
{"SMILES": "Cc1cc(C#Cc2cccc(N)c2)cc(C)c1Oc1ccnc(Nc2ccc(C#N)cc2)n1", "strain": "IIIB", "changes": "E138K", "method": "MTT", "value": "0.135 µM"}
{"SMILES": "COc1cc(CN2CCCNCCNCCCNCC2)c(OC)cc1CN1CCCNCCNCCCNCC1", "strain": "NL4-3", "changes": "AMD3100-resistant", "method": "cytopathic effect / MTT", "value": "0.24 µg/mL"}
{"SMILES": "CCCN(C)c1nc(N)nc2c1ncn2[C@H]1C[C@H](N=[N+]=[N-])[C@@H](CO)O1", "strain": "IIIB", "method": "cytopathic effect", "value": "12 µM"}
{"SMILES": "Cc1cc(C#Cc2cccnc2)cc(C)c1Oc1ccnc(Nc2ccc(C#N)cc2)n1", "strain": "IIIB", "changes": "F227L + V106A", "method": "MTT", "value": "0.209 µM"}
{"SMILES": "N#Cc1ccc(Nc2nc(Oc3ccc(-c4ccc(C#N)cc4)cc3[N+](=O)[O-])c3sccc3n2)cc1", "strain": "IIIB", "changes": "L100I", "method": "MTT", "value": "0.018 µM"}
{"SMILES": "NCCCCN1CCCN(CCCCN)CCN(CCCCN)CCCN(CCCCN)CC1", "strain": "LAV", "method": "syncytia", "value": "10 µM"}
{"SMILES": "N#Cc1ccc(Nc2nccc(Oc3cc4c(cc3Br)c(=O)c(C(=O)O)cn4C3CC3)n2)cc1", "strain": "IIIB", "changes": "K103N Y181C NNRTI-resistant", "method": "MTT", "value": ">14.99 µM"}
{"SMILES": "[N-]=[N+]=N[C@H]1C[C@H](n2cnc3c(Nc4ccccc4)nc(N)nc32)O[C@@H]1CO", "strain": "IIIB", "method": "cytopathic effect", "value": "112 µM"}
{"SMILES": "C=CCOCn1c(Cc2cc(C)cc(C)c2)c(CC)c(=O)[nH]c1=O", "strain": "HXB2", "method": "cytopathic effect / MTT", "value": "0.003 µM"}
{"SMILES": "NCCCCCCN1CCCN(CCCCCCN)CCCN(CCCCCCN)CCN(CCCCCCN)CCC1", "strain": "LAV", "method": "syncytia", "value": ">50 µM"}
{"SMILES": "CN(C)c1nc(N)nc2c1ncn2[C@H]1C[C@H](N=[N+]=[N-])[C@@H](CO)O1", "strain": "IIIB", "method": "cytopathic effect", "value": "12 µM"}
{"SMILES": "CC(C)(c1ncc(-c2ccc(F)cc2)o1)N1CCN(C[C@@H](O)C[C@@H](Cc2nnc(-c3ccccc3)o2)C(=O)N[C@H]2c3ccccc3OC[C@H]2O)[C@H](C(=O)NCC(F)(F)F)C1", "strain": "V-18 Clinical isolate", "changes": "PR-L10I M36I N37D M46I R57K L63P A71V G73S I84V L90M I93L", "method": "p24", "value": "<0.063 µM"}
{"SMILES": "CC(=O)Nc1cccc(C#Cc2cc(C)c(Oc3ccnc(Nc4ccc(C#N)cc4)n3)c(C)c2)c1", "strain": "IIIB", "changes": "E138K", "method": "MTT", "value": "0.124 µM"}
{"SMILES": "[N-]=[N+]=N[C@H]1C[C@H](n2cnc3c(OC4CCC4)nc(N)nc32)O[C@@H]1CO", "strain": "IIIB", "method": "cytopathic effect", "value": "15 µM"}
{"SMILES": "CCCn1cc(C(=O)O)c(=O)c2cc(I)c(Oc3ccnc(Nc4ccc(C#N)cc4)n3)cc21", "strain": "IIIB", "method": "MTT", "value": "0.015 µM"}
{"SMILES": "Cc1cc(C#N)cc(C)c1Oc1nc(Nc2ccc(C#N)cc2)nc(N)c1Br", "strain": "IIIB", "changes": "Y181C", "method": "MTT", "value": "0.016 µM"}
{"SMILES": "COc1ccc(S(=O)(=O)N(CC(C)C)C[C@@H](O)[C@H](Cc2ccccc2)NC(=O)O[C@H]2CO[C@H]3O[C@@H]4OCC[C@@H]4[C@H]32)cc1", "strain": "NL4-3", "changes": "L10F V32I M46I I54M A71V I84V", "method": "p24 / luminescence", "value": "0.038 µM"}
{"SMILES": "NCCCCCCN1CCCN(CCCCCCN)CCN(CCCCCCN)CCCN(CCCCCCN)CC1", "strain": "LAV", "method": "syncytia", "value": ">50 µM"}
{"SMILES": "CNC(=O)CSP(=O)(NCC(=O)OC)OC[C@@H]1CC[C@H](n2cnc3c(=O)[nH]cnc32)O1", "method": "cytopathic effect / XTT", "value": "10 µM"}
{"SMILES": "Cc1ccc(/C=C/c2cc(C)c(Oc3ccnc(Nc4ccc(C#N)cc4)n3)c(C)c2)cc1", "strain": "IIIB", "changes": "F227L + V106A", "method": "MTT", "value": "≥2.267 µM"}
{"SMILES": "C1CNCCCNCCNCCCNC1", "strain": "LAV", "method": "syncytia", "value": "10 µM"}
{"SMILES": "c1cc(CCN2CCCNCCNCCCNCC2)ccc1CCN1CCCNCCNCCCNCC1", "strain": "AOM", "method": "cytopathic effect / MTT", "value": "5.6 µg/mL"}
{"SMILES": "Cc1cc(C#CC2CC2)cc(C)c1Oc1ccnc(Nc2ccc(C#N)cc2)n1", "strain": "IIIB", "changes": "F227L + V106A", "method": "MTT", "value": "5.3 µM"}
{"SMILES": "CCN(CC)CC.CNC(=O)CSP(=O)(O)OC[C@H]1O[C@@H](n2cc(C)c(=O)[nH]c2=O)C[C@@H]1F", "method": "cytopathic effect / XTT", "value": "0.3 µM"}

The first 8 rows once more:

| SMILES | strain | changes | method | value |
|---|---|---|---|---|
| CC(C)n1cc(C(=O)O)c(=O)c2cc(Br)c(Oc3ccnc(Nc4ccc(C#N)cc4)n3)cc21 | IIIB |  | MTT | 0.088 µM |
| CCCc1nnc(C[C@H](C[C@H](O)CN2CCN(C(C)(C)c3ncc(-c4ccc(F)cc4)o3)C[C@H]2C(=O)NCC(F)(F)F)C(=O)N[C@H]2c3ccccc3OC[C@H]2O)o1 | NL4-3 WT |  | p24 | <0.016 µM |
| Cc1cc(C#Cc2cccc(N)c2)cc(C)c1Oc1ccnc(NC2CCN(c3cccc(C(N)=O)c3)CC2)n1 | IIIB |  | MTT | 0.024 µM |
| [N-]=[N+]=N[C@H]1C[C@H](n2cnc3c(NC4CCC4)nc(N)nc32)O[C@@H]1CO | IIIB |  | cytopathic effect | 14 µM |
| O=C(OCc1ccccc1)N(CCCCCN1CCCN(CCCCCN(Cc2ccccc2)C(=O)OCc2ccccc2)CCN(CCCCCN(Cc2ccccc2)C(=O)OCc2ccccc2)CCCN(CCCCCN(Cc2ccccc2)C(=O)OCc2ccccc2)CC1)Cc1ccccc1 | LAV |  | syncytia | 10 µM |
| N#Cc1ccc(Nc2nc(Oc3ccc(-c4ccc(C#N)cc4)c(Cl)c3)c3sccc3n2)cc1 | IIIB |  | MTT | 0.2296 µM |
| Nc1ccn([C@H]2CC[C@@H](CO)O2)c(=O)n1 | LZ-07.96 (HXB2 RT T69N L74I Q151M M184V) | RT-T69N L74I Q151M M184V | cytopathic effect | >20 µM |
| COC(=O)N[C@H](C(=O)N[C@@H](Cc1ccccc1)[C@@H](O)CN(Cc1ccc(-c2ccccn2)cc1)NC(=O)[C@@H](NC(=O)OC)C(C)(C)C)C(C)(C)C | NL4-3 | L10F V32I M46I I54M A71V I84V | p24 / luminescence | 0.371 µM |

Rows are shuffled and stem from different studies. ECn is the concentration giving n% inhibition of infection, replication or growth.